Holding throughout (experiment): pseudovirus neutralization IC50; higher = weaker neutralization
The target in experiment [1] is SARS-CoV-2 Omicron BA.1 spike pseudovirus. On the procedure:
(§1)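 Single-round VSV luciferase pseudovirus mixed with antibody dilutions for 1 h and put on Huh-7 cells for about a day; IC50 from the dose curve.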

The target of experiment [2] is SARS-CoV-2 Omicron BA.2 spike pseudovirus. The method, then:
as §1

The target in experiment [3] is SARS-CoV-2 Omicron BA.2.75 spike pseudovirus. On the procedure: as §1
Experiment [4] deals with SARS-CoV-2 Omicron BA.5 spike pseudovirus. The method, then: as §1
The target of experiment [5] is SARS-CoV-2 Omicron BQ.1.1 spike pseudovirus. On the procedure: as §1
The target in experiment [6] is SARS-CoV-2 Omicron XBB spike pseudovirus. The method, then: as §1
The target of experiment [7] is SARS-CoV-2 early D614G spike pseudovirus. The method, then:
as §1

Human monoclonal antibodies against the spike receptor-binding domain (heavy:light variable regions). IC50 against pseudoviruses bearing the spike of naturally observed variants; lower = stronger; >10 µg/ml means not reached at the top dose. No active / inactive call. The stated detection limit is 0.0005 µg/ml; values near or below 0.001 µg/ml lie at the floor of the assay.

B1: P4A1 (protein)
chain 1: EVQLVESGGGLIQPGGSLRLSCAASGFIVSSNYMSWVRQAPGKGLEWVSIIYSGGSTFYADSVKGRFTISRDNSKNTLYLQMNSLRVEDTAVYYCARDLQELGSLDYWGQGTLVTVSS
chain 2: DIQMTQSPSSVSASVGDRVTITCRASQGISSWLAWYQQKPGKAPKLLIYAASSLQSGVPSRFSGSGSGTDFTLTISSLQPEDFATYYCQEANSFPYTFGQGTKLEIK
In the case of B1, the “pseudovirus neutralization IC50” value in experiment [1], in experiment [2], in experiment [3], in experiment [4], in experiment [5] and in experiment [6] was above 10 µg/mL in each case. For the same molecule, in experiment [7], the “pseudovirus neutralization IC50” value was determined as 0.0438 µg/mL.

B2: DH1159-2 (protein)
chain 1: QVQLQESGPGLVKPSQTLSLTCTVSGGSISSATYYWSWIRQPAGKGLEWIGHIYTSGTTNYNPSLKSRVTISVDTSKSQFSLKLNSVTAADTAVYYCARGLRFCSDTRCYPYFDYWGQGTLVTVSS
chain 2: DIQMTQSPSSLSASVGDRVTITCRASQSISNYLNWYQQTPGKAPKLLVYATSGLQSGVPSRFTGSGSGTDFTLTISSLQPGDFAIYYCQQTYSAPWTFGQGTKVEIK
Turning to B2, the “pseudovirus neutralization IC50” value in experiment [1], in experiment [2], in experiment [3], in experiment [4], in experiment [5] and in experiment [6] was above 10 µg/mL each time. Also, the “pseudovirus neutralization IC50” value in experiment [7] was 2.96 µg/mL.

B3: BD56-674 (protein)
chain 1: QVHLVESGGGVVQPGRSLRLSCAGSGFIVSDYAVHWVRQAPGKGLEWVALMSSDESKKYFTDSVKGRFTFSRDNSKNTLYLQMNSLRPEDTAVYYCARESGFGMDILTGTGSDFDYWGQGTLVTVSS
chain 2: DIQMTQSPSSLSASVGDRVTITCRASQTISTYLNWYQQKPGKPPKSLIYAASNLQSGVPSRFSGSGSGTDFTLTISSLQPEDFATYYCQQTYSTPITFGQGTRLEIK
Regarding B3, the “pseudovirus neutralization IC50” value was 1.02 µg/mL in experiment [1]; 1.55 µg/mL in experiment [2]; 1.43 µg/mL in experiment [3]; 1.64 µg/mL in experiment [4]; above 10 µg/mL in experiment [5]; 6.43 µg/mL in experiment [6]. For the same molecule, the “pseudovirus neutralization IC50” value in experiment [7] was 3.04 µg/mL.

B4: BD56-620 (protein)
chain 1: QVQLVESGGGVVKPGRSLTLSCAASGFNFRTYAMHWVRQAPGKGLEWVAVISSDGSYKYYADSVKGRFTISRDNSKNTLYLQMNSLRAEDTAVYYCVREEGGDSVDDLNVRFDYWGQGTLVIVSS
chain 2: DIQMTQSPSSLSASVGDRVTITCRASQNINYYLNWYQQKPGKAPNLLIYSASRLQSGVPSRFSGSGSGTHFTLTISSLQPEDFATYYCQQSYSTSMYTFGQGTKLEIK
B4: the “pseudovirus neutralization IC50” value in experiment [1], in experiment [2], in experiment [3], in experiment [4], in experiment [5] and in experiment [6] was above 10 µg/mL throughout. Moreover, in experiment [7], the “pseudovirus neutralization IC50” value came out at 3.31 µg/mL.

B5: BD56-652 (protein)
chain 1: QVQLVQSGSELKKPGASVKVSCKASGYTFTHYAINWVRQAPGQGLEWMGWISTNTGNPTYVQGFTGRFVFSLDTSVSTAYLQIRSLKAEDTAVYYCARDLSDTLLVGGFDPWGQGTLVTVSS
chain 2: QLTQSPSSLSASLRDRVTITCRASEGISTYLAWYQQKPGKAPELLIHAASTLQSGVPSRFSGSGSGTDFTLTISSLQPEDFATYYCQQLNSYPYTFGQGTKLEIK
Turning to B5, the “pseudovirus neutralization IC50” value in experiment [1], in experiment [2], in experiment [3], in experiment [4], in experiment [5] and in experiment [6] was above 10 µg/mL each time. In addition, in experiment [7], the “pseudovirus neutralization IC50” value is above 10 µg/mL.

B6: BD56-618 (protein)
chain 1: QVQLVESGGGVVQPGRSLRLSCAASGFTFSRFAMHWVRQAPGKGLEWVAVVSYDAGNKYYADSVKGRFTISRDNSKNTLYLQMNSLRAEDTAVYYCAKGDYYGSGTYFNPYGMDVWGQGTTVIVSS
chain 2: ATQLTQSPSSLSASVGDRVTITCRASQDISSALAWYQQKPGKAPKLLIFDASTLKSGVPSRFSGSGSGTDFTLTISSLQPEDSATYYCQQFSNYLVTFGGGTKVEIK
For B6, the “pseudovirus neutralization IC50” value is 0.0556 µg/mL in experiment [1]; 0.0434 µg/mL in experiment [2]; 0.0343 µg/mL in experiment [3]; above 10 µg/mL in experiment [4]; above 10 µg/mL in experiment [5]; 3.25 µg/mL in experiment [6]. For the same molecule, the “pseudovirus neutralization IC50” value in experiment [7] was determined as 0.032 µg/mL.

B7: BD56-638 (protein)
chain 1: QVQLVESGGGVVQPGRSLRLSCAASGFTFSNYAIHWVRQAPGKGLEWLAVISYDGTYKYYSDSVKGRFTISRDSSNTLYLQLNSLTTEDTAVYFCARDMNAHPSVYAYGMDVWGPGTTVTVS
chain 2: QSVLTQPPSVSGAPGQRVTISCTGSTSNVGAGYDVHWYQQLPGTAPKLLIYGNSDRPSGVPDRFSGSKSGTSAALAITGLQAEDEAAYYCQSYDSSLSGWLFGGGTELTVL
For B7, the “pseudovirus neutralization IC50” value in experiment [1] was 2.33 µg/mL; in experiment [2], 2.78 µg/mL; in experiment [3] it was 2.18 µg/mL; in experiment [4], 2.21 µg/mL; in experiment [5], above 10 µg/mL; in experiment [6], above 10 µg/mL. Moreover, the “pseudovirus neutralization IC50” value in experiment [7] amounted to 3.74 µg/mL.

B8: BD56-671 (protein)
chain 1: QVQLVESGGGVVQPGRSLRLSCVASGFTFSRHALHWVRQAPGKGLEWVAVISYDGSKIHYGDSARGRFTISRDNSKNTLYLQMNSLRAEDTAFYHCARDLGFCTNGVCYVKGIYDYYFYGVDVWGQGTRVTVSS
chain 2: QSVVTQPPSASGTPGQRVTISCSGSSSNIGSYTVNWYQQLPATAPKLLIYNDNQRPSGVPDRFSGSKSGISASLAISGLQSEDEAEYYCAAWDDSLNGAWVFGGGTKLTVL
B8: the “pseudovirus neutralization IC50” value is 0.00654 µg/mL in experiment [1]; 0.00412 µg/mL in experiment [2]; 0.00536 µg/mL in experiment [3]; 0.0503 µg/mL in experiment [4]; above 10 µg/mL in experiment [5]; above 10 µg/mL in experiment [6]. The “pseudovirus neutralization IC50” value in experiment [7] was 0.00938 µg/mL.

B9: BD56-658 (protein)
chain 1: QLVESGGGLVKPGGSLRLSCGASGFSFSDALMSWVRQAPGKGLEWVGRIKTEIDGGTIDYAAPVKGRFSISRDDSKNMLFLQMNSLKIEDTAVYYCTTAEWELGLFFDYWGQGTLVTVSS
chain 2: QSVLTQPPSASGTPGQRVTISCSGSSSNIGTNYVYWYQQFPGTAPKLLIYRNNQRPSGVPDRFSGSKSGTSASLAISGLRSEDEADYYCATWDDNLSGRGVFGGGTKLTVL
Regarding B9, the “pseudovirus neutralization IC50” value was 0.715 µg/mL in experiment [1]; 0.709 µg/mL in experiment [2]; 0.806 µg/mL in experiment [3]; 0.601 µg/mL in experiment [4]; 1.6 µg/mL in experiment [5]; 2.47 µg/mL in experiment [6]. Also, the “pseudovirus neutralization IC50” value in experiment [7] was above 10 µg/mL.

B10: BD56-632 (protein)
chain 1: QVQLVESGGGVVQPGRSLRLSCAASGFSFSNYAMHWVRQAPGKGLEWVADISYDGSKKHFADSVKGRLTISRDNSKNTLYLELNSLRAEDTAVYYCAKLHYYSDTAGYYYEDYFNFWGQGTLVTVSS
chain 2: EIVLTQSPATLSLSPGERATLSCRASQSVNNYLAWYQQRPGQAPRLLIYDASNRATGIPARFSGSGSGTDFTLTISSLEPEDFAVYYCHQRSDWPLTFGGGTKVEIK
Take B10: the “pseudovirus neutralization IC50” value in experiment [1] was 0.995 µg/mL; in experiment [2] it was 0.841 µg/mL; in experiment [3], 0.475 µg/mL; in experiment [4], 0.357 µg/mL; in experiment [5] it was above 10 µg/mL; in experiment [6] it was above 10 µg/mL. The “pseudovirus neutralization IC50” value in experiment [7] is 0.5 µg/mL.

B11: BD56-643 (protein)
chain 1: EVQLVESGGALVQPGGSLRLSCAASGFTFSNYDMHWVRQVTGKGLEWVSAIGTAGDTYYRDSMKGRFTVSRENAKSSLYLQMDSLRVGDTAVYYCTRGADAYDWYFDLWGRGTLVTVSS
chain 2: DIQMTQSPSSLSASVGDRVTITCRASQSISRYLNWYQWKPGKAPKLLIYAASSLQRGVPSRFSGSGSGTDFTLTISSLQPEDFATYYCQQSYTMPPATFGQGTKVEIK
With B11, the “pseudovirus neutralization IC50” value in experiment [1] was above 10 µg/mL; in experiment [2], 8.08 µg/mL; in experiment [3], above 10 µg/mL; in experiment [4] it was above 10 µg/mL; in experiment [5], above 10 µg/mL; in experiment [6] it was above 10 µg/mL. The “pseudovirus neutralization IC50” value in experiment [7] was found to be 3.98 µg/mL.

B12: BD56-628 (protein)
chain 1: QVQLQESGPGLVKPSETLSLTCTVSGGSVSSGDYYWSWIRQPPGKGLEWIGYIYYSGSTNYNPSLKSRVSISVDTSKNQFSLKMSSVTTADTAVYYCARGIAVVGTDDDYYYYYGMDVWGQGTTVTVSS
chain 2: SYELTQPPSMSVSLGQMARITCSGEALPKKYAYWYRQKPGQFPVLVIYKDNERPSGIPERFSGSSSGTIVTLTISGVQAEDEADYYCLSADSSDTWVFGGGTKLTVL
B12: the “pseudovirus neutralization IC50” value is 3.32 µg/mL in experiment [1]; 3.55 µg/mL in experiment [2]; 6.44 µg/mL in experiment [3]; 5.35 µg/mL in experiment [4]; above 10 µg/mL in experiment [5]; 7.21 µg/mL in experiment [6]. In experiment [7], the “pseudovirus neutralization IC50” value is 3.11 µg/mL.
